“And” between values parts separate entries of the source, which are not always exact repeats. Equal entries are not always repeated. Non-standard residues stand in square brackets, D forms with d. Residues, ends and D or L forms follow the SMILES beside them. NMeH = CN[C@@H](Cc1c[nH]cn1)C(=O)O Bounds are passed on as bounds.

The test system of this data set is 229E Coronavirus.

Regarding `CC(=O)N[C@@H](CO)C(=O)N[C@@H](CCCCN)C(=O)N(C)[C@@H](Cc1c[nH]cn1)C(=O)N[C@@H](CO)C(N)=O` [Compound 3, SK(N-Me)HS] (Ac-SK[NMeH]S-NH2), the “fold higher potency than natural lactoferrin-derived peptides” value (compared with peptides of IC50 > 1 µM) is reported as “over 10^3 fold”. Moreover, the SI (ratio of CC50 (typically > 25 μM) to EC50, 229E coronavirus) was > 10^5 and >8 × 10^5.

The record behind these values is paper PMC12389581, “Inhibition of Human Coronavirus 229E by Lactoferrin-Derived Peptidomimetics” (Pharmaceutics, 2025).
